Measurements reported in ChEMBL document CHEMBL1629672, “blaCTX-M genes in escherichia coli strains from Croatian Hospitals are located in new (blaCTX-M-3a) and widely spread (blaCTX-M-3a and blaCTX-M-15) genetic structures” (2009).

Test system: Escherichia coli
Conditions: ATCC 25922

GENTAMICIN
MIC: 0.5 µg/mL
